Here are results for one compound from patent US7273885B2, “Inhibitors of serine proteases, particularly HCV NS3-NS4A protease” (Vertex Pharmaceuticals Incorporated, priority 2002, dated 2007).

The chains behind the UniProt entries cited, without tags or fusion partners. Residues count along the entry.
UniProt P27958, 1027-1208 limits assumed: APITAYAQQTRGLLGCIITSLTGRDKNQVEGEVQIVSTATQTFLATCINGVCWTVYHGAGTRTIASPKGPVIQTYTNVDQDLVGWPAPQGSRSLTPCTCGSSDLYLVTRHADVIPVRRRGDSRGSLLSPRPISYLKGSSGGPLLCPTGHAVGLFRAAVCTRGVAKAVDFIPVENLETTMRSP

Assay [1] deals with HCV NS3-NS4A protease (tNS3 with KK4A) (Hepatitis C virus genotype 1a, UniProt P27958). Kind of assay: HCV Ki assay (HPLC microbore separation of 5AB substrate and products). The assay is classed as biochemical. As to conditions: 25 nM tNS3, 25 μM KK4A, 25 μM 5AB substrate, 20 min at 30 C. The protocol:
HPLC Microbore Method for Separation of 5AB Substrate and Products
• Substrate: • NH2-Glu-Asp-Val-Val-(alpha)Abu-Cys-Ser-Met-Ser-Tyr-COOH
A stock solution of 20 mM 5AB (or concentration of your choice) was made in DMSO w/ 0.2M DTT. This was stored in aliquots at −20 C.
Buffer: 50 mM HEPES, pH 7.8; 20% glycerol; 100 mM NaCl
Total assay volume was 100 μL
The buffer, KK4A, DTT, and tNS3 were combined; distributed 78 μL each into wells of 96 well plate. This was incubated at 30 C for ˜5–10 min.
2.5 μL of appropriate concentration of test compound was dissolved in DMSO (DMSO only for control) and added to each well. This was incubated at room temperature for 15 min.
Initiated reaction by addition of 20 μL of 250 μM 5AB substrate (25 μM concentration is equivalent or slightly lower than the Km for 5AB).
Incubated for 20 min at 30 C.
Terminated reaction by addition of 25 μL of 10% TFA
Transferred 120 μL aliquots to HPLC vials
Separated SMSY product from substrate and KK4A by the following method:
Microbore Separation Method:
Instrumentation: Agilent 1100
• Degasser G1322A • Binary pump G1312A • Autosampler G1313A • Column thermostated chamber G1316A • Diode array detector G1315A Column:
Phenomenex Jupiter; 5 micron C18; 300 angstroms; 150×2 mm; P/O 00F-4053-B0 • Column thermostat: 40 C • Injection volume: 100 μL • Solvent A=HPLC grade water+0.1% TFA • Solvent B=HPLC grade acetonitrile+0.1% TFA […]

The test system of assay [2] is Cells containing hepatitis C virus (HCV) replicon. Kind of assay: HCV replicon cell assay (Taqman RT-PCR of HCV RNA). To be noted: 50% inhibition of HCV RNA level, 48-hour incubation. The assay is classed as cell-based. Here is the method:
HCV Replicon Cell Assay Protocol
Cells containing hepatitis C virus (HCV) replicon were maintained in DMEM containing 10% fetal bovine serum (FBS), 0.25 mg per ml of G418, with appropriate supplements (media A).
On day 1, replicon cell monolayer was treated with a trypsin:EDTA mixture, removed, and then media A was diluted into a final concentration of 100,000 cells per ml wit. 10,000 cells in 100 ul were plated into each well of a 96-well tissue culture plate, and cultured overnight in a tissue culture incubator at 37° C.
On day 2, compounds (in 100% DMSO) were serially diluted into DMEM containing 2% FBS, 0.5% DMSO, with appropriate supplements (media B). The final concentration of DMSO was maintained at 0.5% throughout the dilution series.
Media on the replicon cell monolayer was removed, and then media B containing various concentrations of compounds was added. […]
A Taqman real-time RT-PCR quantification assay was set up with two sets of specific primers and probe. […] Total RNA extractants from treated HCV replicon cells was added to the PCR reactions for quantification of both HCV and BVDV RNA in the same PCR well. […] The level of HCV RNA in each well was calculated according to a standard curve run in the same PCR plate. The percentage of inhibition or decrease of HCV RNA level due to compound treatment was calculated using the DMSO or no compound control as 0% of inhibition. […]

Turning to `CCC[C@H](NC(=O)[C@@H]1C[C@@H](Oc2ncnc3ccccc23)CN1C(=O)[C@@H](NC(=O)[C@@H](NC(=O)c1[nH]c(C)c(C)c1C(C)=O)C1CCCCC1)C(C)(C)C)C(=O)C(=O)NC1CC1`, the Ki in assay [1] was < 500 nM. Besides, the IC50 in assay [2] is < 500 nM.
